# Laboratory results published in patent publication US20240109955A1 (published 2024).
# Experiments:
# Assay in all cases: cell-based or functional assay
# [1] = biological target: SARS-CoV-2 spike (S) protein, Omicron sublineage BF.7 (SARS-CoV-2)
# [2] = biological target: SARS-CoV-2 spike (S) protein, Omicron sublineage XBB1.5 (SARS-CoV-2)
# [3] = biological target: SARS-CoV-2 spike (S) protein, Omicron sublineage BA.2 (SARS-CoV-2, UniProt P0DTC2 14-1273)
# [4] = biological target: SARS-CoV-2 spike (S) protein, Omicron sublineage BA.2.12.1 (SARS-CoV-2, UniProt P0DTC2 14-1273)
Binder,"IC50, pseudovirus neutralization [1] [nM]","IC80, pseudovirus neutralization [1] [nM]","IC50, pseudovirus neutralization [2] [nM]","IC80, pseudovirus neutralization [2] [nM]","IC50, pseudovirus neutralization [3] [nM]","IC80, pseudovirus neutralization [3] [nM]","IC50, pseudovirus neutralization [4] [nM]","IC80, pseudovirus neutralization [4] [nM]"
A46 + E12 + B8 + A58VGLTG (other) VH 1: QVQLVESGGGVVQPGRSLRLSCAASGFTLSSYGMHWVRQAPGKGLEWVAVISYDGSNKYYVDSVKGRFTISRDNSKNTLYLQMNSLRAEDTAVYYCRWAYWELLPDYYYGMDVWGQGTTVTVSS VL 1: QTVVTQEPSFSVSPGGTVTLTCGLSSGSVSTAYFPSWYQQTPGQAPRTLIYGTNTRSSGVPDRFSGSILGNKAALTITGAQADDESDYYCVLYMGRGIVVFGGGTKLTVL VH 2: EVQLVESGGGLIQPGGSLRLSCAASGVIVSYNYMNWVRQAPGKGLEWVSVIYSGGSTFYADSVRGRFTISRDNSKNTLYLQMNSLRAEDTAVYYCARDLGPAGAFDIWGLGTMVTVSS VL 2: EIVLTQSPGTLSLSPGETATLSCRASQSFSSDLAWYQQKPGQAPRLLIYGASSRATGIPDRFSGSGSGTDFTLTISRLEPADFAVYYCQQYGSSPPVTFGGGTKVEIK VH 3: EVQLVESGGALIQPGGSLRLSCAASGIIVSANYMSWVRQAPGKGLEWVSVIYSGGSTFYADSVKGRFTISRDNSKNTLYLEMNSLRAEDTAVYYCARDAPILGVSDWGQGTLVTVSS VL 3: EIVMTQSPAILSVSPGERATLSCRASQSVAINLAWYQQKPGQAPRLLIYAASSRATGIPGRFSGSGSETNFTLTISSLQSGDFAVYYCQQYITWPPSYTFGQGTKLEIK VH 4: QMQLVQSGPEVKKPGTSVKVSCKASGFTFTSSAVQWVRQRQRLEWIGWIVVGSGNTNYAQKFQERVTITRDMSTSTAYMELSSLRSEDTAVYYCAAPNCSNVVCYDGFDIWGQGTMVTVSS VL 4: EIVLTQSPGTLSLSPGERATLSCRASQSVSSSYLAWYQQKPGQAPRLLIYSASSRATGIPDRFSGSGSGTDFTLTISRLEPEDFAVYFCQQYVGLTGWTFGQGTKVEIK,17.4,20,15.3,30.6,–,–,–,–
MX837 (other) chain 1: QTVVTQEPSFSVSPGGTVTLTCGLSSGSVSTAYFPSWYQQTPGQAPRTLIYGTNTRSSGVPDRFSGSILGNKAALTITGAQADDESDYYCVLYMGRGIVVFGGGTKLTVLGGSSGEIVLTQSPGTLSLSPGERATLSCRASQSVSSSYLAWYQQKPGQAPRLLIYSASSRATGIPDRFSGSGSGTDFTLTISRLEPEDFAVYFCQQYVGLTGWTFGQGTKVEIKGGGGSGGSGSGGGGSASGSGQMQLVQSGPEVKKPGTSVKVSCKASGFTFTSSAVQWVRQRQRLEWIGWIVVGSGNTNYAQKFQERVTITRDMSTSTAYMELSSLRSEDTAVYYCAAPNCSNVVCYDGFDIWGQGTMVTVSSGGSSGQVQLVESGGGVVQPGRSLRLSCAASGFTLSSYGMHWVRQAPGKGLEWVAVISYDGSNKYYVDSVKGRFTISRDNSKNTLYLQMNSLRAEDTAVYYCRWAYWELLPDYYYGMDVWGQGTTVTVSSASGGSGDKTHTCPPCPAPELLGGPSVFLFPPKPKDTLMISRTPEVTCVVVDVSHEDPEVKFNWYVDGVEVHNAKTKPREEQYNSYVVSVLTVLHQDWLNGKEYKCKVSNKALPAPIEKTISKAKGQPREPQVYTLPPCRDELTKNQVSLWCLVKGFYPSDIAVEWESNGQPENNYKTTPPVLDSDGSFFKKLTVDKSRWQQGNVFSCSVLHEALHSHYTQKSLSLSPG chain 2: DIQMTQSPSSVSASVGDRVIITCRASQGISSWLAWYQQKPGKAPKVLIYDASSLQSGVPSRFSGSGYGTDFTLTISSLQPEDSATYYCQQAKSFPITFGQGTRLEIKGGSSGEIVLTQSPGTLSLSPGERATLSCRASQSVSSSYLAWYQQKPGQAPRLLIYSASSRATGIPDRFSGSGSGTDFTLTISRLEPEDFAVYFCQQYVGLTGWTFGQGTKVEIKGGGGSGGSGSGGGGSASGSGQMQLVQSGPEVKKPGTSVKVSCKASGFTFTSSAVQWVRQRQRLEWIGWIVVGSGNTNYAQKFQERVTITRDMSTSTAYMELSSLRSEDTAVYYCAAPNCSNVVCYDGFDIWGQGTMVTVSSGGSSGQVQLVESGGGVVQPGRSLRLSCAASGFTFSSYAFHWVRQAPGKGLEWVAVISYDGSNQYYADSVKGRFTISRDNSKNTLYLQMNSLRADDTAVYYCARDLAIAVAGTWHYYNGMDVWGQGTTVTVSSASGGSGDKTHTCPPCPAPELLGGPSVFLFPPKPKDTLMISRTPEVTCVVVDVSHEDPEVKFNWYVDGVEVHNAKTKPREEQYNSYVVSVLTVLHQDWLNGKEYKCKVSNKALPAPIEKTISKAKGQPREPQVCTLPPSRDELTKNQVSLSCAVKGFYPSDIAVEWESNGQPENNYKTTPPVLDSDGSFFLVSKLTVDKSRWQQGNVFSCSVLHEALHSHYTQKSLSLSPG,–,–,–,–,2.06,7.07,5.76,17.5
MX835 (other) chain 1: QTVVTQEPSFSVSPGGTVTLTCGLSSGSVSTAYFPSWYQQTPGQAPRTLIYGTNTRSSGVPDRFSGSILGNKAALTITGAQADDESDYYCVLYMGRGIVVFGGGTKLTVLGGSSGEIVLTQSPGTLSLSPGERATLSCRASQSVSSSYLAWYQQKPGQAPRLLIYSASSRATGIPDRFSGSGSGTDFTLTISRLEPEDFAVYFCQQYGGLTGWTFGQGTKVEIKGGGGSGGSGSGGGGSASGSGQMQLVQSGPEVKKPGTSVKVSCKASGFTFTSSAVQWVRQRQRLEWIGWIVVGSGNTNYAQKFQERVTITRDMSTSTAYMELSSLRSEDTAVYYCAAPNCSNVVCYDGFDIWGQGTMVTVSSGGSSGQVQLVESGGGVVQPGRSLRLSCAASGFTLSSYGMHWVRQAPGKGLEWVAVISYDGSNKYYVDSVKGRFTISRDNSKNTLYLQMNSLRAEDTAVYYCRWAYWELLPDYYYGMDVWGQGTTVTVSSASGGSGDKTHTCPPCPAPELLGGPSVFLFPPKPKDTLMISRTPEVTCVVVDVSHEDPEVKFNWYVDGVEVHNAKTKPREEQYNSYVVSVLTVLHQDWLNGKEYKCKVSNKALPAPIEKTISKAKGQPREPQVYTLPPCRDELTKNQVSLWCLVKGFYPSDIAVEWESNGQPENNYKTTPPVLDSDGSFFKKLTVDKSRWQQGNVFSCSVLHEALHSHYTQKSLSLSPG chain 2: EIVLTQSPGTLSLSPGERATLSCRASQSVSSSYLAWYQQKPGQAPRLLIYSASSRATGIPDRFSGSGSGTDFTLTISRLEPEDFAVYFCQQYGGLTGWTFGQGTKVEIKGGSSGDIQMTQSPSSVSASVGDRVIITCRASQGISSWLAWYQQKPGKAPKVLIYDASSLQSGVPSRFSGSGYGTDFTLTISSLQPEDSATYYCQQAKSFPITFGQGTRLEIKGGGGSGGSGSGGGGSASGSGQVQLVESGGGVVQPGRSLRLSCAASGFTFSSYAFHWVRQAPGKGLEWVAVISYDGSNQYYADSVKGRFTISRDNSKNTLYLQMNSLRADDTAVYYCARDLAIAVAGTWHYYNGMDVWGQGTTVTVSSGGSSGQMQLVQSGPEVKKPGTSVKVSCKASGFTFTSSAVQWVRQRQRLEWIGWIVVGSGNTNYAQKFQERVTITRDMSTSTAYMELSSLRSEDTAVYYCAAPNCSNVVCYDGFDIWGQGTMVTVSSASGGSGDKTHTCPPCPAPELLGGPSVFLFPPKPKDTLMISRTPEVTCVVVDVSHEDPEVKFNWYVDGVEVHNAKTKPREEQYNSYVVSVLTVLHQDWLNGKEYKCKVSNKALPAPIEKTISKAKGQPREPQVCTLPPSRDELTKNQVSLSCAVKGFYPSDIAVEWESNGQPENNYKTTPPVLDSDGSFFLVSKLTVDKSRWQQGNVFSCSVLHEALHSHYTQKSLSLSPG,–,–,–,–,3.22,17.1,3.06,13.4
MX838 (other) chain 1: QTVVTQEPSFSVSPGGTVTLTCGLSSGSVSTAYFPSWYQQTPGQAPRTLIYGTNTRSSGVPDRFSGSILGNKAALTITGAQADDESDYYCVLYMGRGIVVFGGGTKLTVLGGSSGEIVLTQSPGTLSLSPGERATLSCRASQSVSSSYLAWYQQKPGQAPRLLIYSASSRATGIPDRFSGSGSGTDFTLTISRLEPEDFAVYFCQQYGGLTGWTFGQGTKVEIKGGGGSGGSGSGGGGSASGSGQMQLVQSGPEVKKPGTSVKVSCKASGFTFTSSAVQWVRQRQRLEWIGWIVVGSGNTNYAQKFQERVTITRDMSTSTAYMELSSLRSEDTAVYYCAAPNCSNVVCYDGFDIWGQGTMVTVSSGGSSGQVQLVESGGGVVQPGRSLRLSCAASGFTLSSYGMHWVRQAPGKGLEWVAVISYDGSNKYYVDSVKGRFTISRDNSKNTLYLQMNSLRAEDTAVYYCRWAYWELLPDYYYGMDVWGQGTTVTVSSASGGSGDKTHTCPPCPAPELLGGPSVFLFPPKPKDTLMISRTPEVTCVVVDVSHEDPEVKFNWYVDGVEVHNAKTKPREEQYNSYVVSVLTVLHQDWLNGKEYKCKVSNKALPAPIEKTISKAKGQPREPQVYTLPPCRDELTKNQVSLWCLVKGFYPSDIAVEWESNGQPENNYKTTPPVLDSDGSFFKKLTVDKSRWQQGNVFSCSVLHEALHSHYTQKSLSLSPG chain 2: DIQMTQSPSSVSASVGDRVIITCRASQGISSWLAWYQQKPGKAPKVLIYDASSLQSGVPSRFSGSGYGTDFTLTISSLQPEDSATYYCQQAKSFPITFGQGTRLEIKGGSSGEIVLTQSPGTLSLSPGERATLSCRASQSVSSSYLAWYQQKPGQAPRLLIYSASSRATGIPDRFSGSGSGTDFTLTISRLEPEDFAVYFCQQYGGLTGWTFGQGTKVEIKGGGGSGGSGSGGGGSASGSGQMQLVQSGPEVKKPGTSVKVSCKASGFTFTSSAVQWVRQRQRLEWIGWIVVGSGNTNYAQKFQERVTITRDMSTSTAYMELSSLRSEDTAVYYCAAPNCSNVVCYDGFDIWGQGTMVTVSSGGSSGQVQLVESGGGVVQPGRSLRLSCAASGFTFSSYAFHWVRQAPGKGLEWVAVISYDGSNQYYADSVKGRFTISRDNSKNTLYLQMNSLRADDTAVYYCARDLAIAVAGTWHYYNGMDVWGQGTTVTVSSASGGSGDKTHTCPPCPAPELLGGPSVFLFPPKPKDTLMISRTPEVTCVVVDVSHEDPEVKFNWYVDGVEVHNAKTKPREEQYNSYVVSVLTVLHQDWLNGKEYKCKVSNKALPAPIEKTISKAKGQPREPQVCTLPPSRDELTKNQVSLSCAVKGFYPSDIAVEWESNGQPENNYKTTPPVLDSDGSFFLVSKLTVDKSRWQQGNVFSCSVLHEALHSHYTQKSLSLSPG,–,–,–,–,3.82,23.8,6.01,18.4
